Test: Inhibition of Rickettsia prowazekii N-terminal His6-tagged methionine aminopeptidase 1 expressed in Escherichia coli DLB3 Rosetta cells at 10 uM using Met-AMC as substrate preincubated for 1 hr followed by 30 mins incubation after substrate addition measured after 90 mins in presence of MnCl2 by fluorescence assay relative to control
Procedure, shortened: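 Recombinant R. prowazekii MetAP with Mn(II) as the metal cofactor. Met-AMC substrate; release of free AMC is followed by fluorescence (excitation 360 nm, emission 460 nm). Activity is the slope of fluorescence versus time, compared with an uninhibited control.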

## Nc1nnc(SCc2c(F)cccc2Cl)[nH]1
  inhibition: 49 to 64%
